Measured values from several laboratories, pooled; numbers as filed in NIAID ChemDB.

Common to all: growth or infection tests; species: Mycobacterium tuberculosis

Lines come from different laboratories, so protocols vary.

smiles	method	dose	strain	read-out	result
COc1ccc2nc(N/N=C/c3cccc(C)n3)cc(C)c2c1	BACTEC	12.5 µg/mL	H37Rv	inhibition	46%
Br.CCN(CC)CCS(=O)(=O)CCCOc1ccc([N+](=O)[O-])cc1			H37Rv	MIC	>100 µg/mL
COC1(CO)C(=O)N(C)CC(=O)N1C			CS-R	MIC	6.3 µg/mL
CC1CN(c2cc3c(cc2F)c(=O)c(C(=O)O)cn3-c2ccc(F)cc2F)CCN1			DRUG-SUS	MBC90	4 µg/mL
Cc1ccc2ccc3ccc(C)nc3c2n1	BACTEC	12.5 µg/mL	H37Rv	inhibition	49%
O=C([O-])c1ccc(NC(=O)c2ccc([N+](=O)[O-])cc2)cc1.[Na+]			H37Rv	MIC	>100 µg/mL
CCOC(=O)Nc1cc2c(c(N)n1)N=C(c1ccccc1)CO2			H37Rv	EC50	>12.5 µg/mL
COc1ccc(CCNCCNCCC2=CCCCC2)cc1				MIC	12.5 µM
CCOc1ccc(NC2=CC(=O)C(=O)c3ccccc32)cc1	resazurin	6.25 µg/mL	H37Rv	inhibition	101%
CO[C@H]1/C=C/O[C@@]2(C)Oc3c(C)c(O)c4c(=O)c(c5oc6cc(N7CCN(C(C)C)CC7)cc(=O)c6nc5c4c3=C2O)NC(=O)/C(C)=C\C=C\[C@H](C)[C@H](O)[C@@H](C)[C@@H](O)[C@@H](C)[C@H](OC(C)=O)[C@@H]1C			2983 (rifampin-sensitive)	MBC	0.012 µg/mL
c1ccc(CCCCNCCNCCCc2ccccc2)cc1				MIC	25 µM
COc1c2c(cc3c1C1Oc4c(ccc(O)c4CC=C(C)C)C1CO3)OC(C)(C)C=C2			H37Rv	MIC	12.5 µg/mL
C[C@H]1COc2c(N3CCN(C)CC3)c(F)cc3c(=O)c(C(=O)O)cn1c23			ATCC 35828	MIC	0.25 µg/mL
O=C(Nc1ccccc1)C1=C(C(=O)c2ccccc2)C=C1			H37Rv	MIC	>100 µg/mL
O=C(/C=C/c1ccncc1)c1ccco1				EC50	>12.5 µg/mL
C[C@@H](NCCNC1CCCCCCC1)C1CCCCC1				MIC	50 µM
CCOC(=O)NC(C)(C)CN(C(=O)OCC)C(C)(C)CO	BACTEC		H37Rv	MIC bound	>12.8 µg/mL
NC1CCN(c2c(F)cc3c(=O)c(C(=O)O)cn(C4CC4)c3c2Cl)C1			ATCC 35822	MIC	0.25 µg/mL
Cc1cc(=O)[nH]c(O)c1C#N			H37Rv	MIC	>100 µg/mL
CCN(CC)CCOC(=O)c1c2nc3c(C(=O)OCCN(CC)CC)ccc(C)c3oc-2c(C)c(=O)c1N	BACTEC	12.5 µg/mL	H37Rv	inhibition	86%
CC(=O)SCC(=O)Nc1ccc(CC(=O)Nc2cc(Cl)c(C)c(Cl)c2O)cc1			H37Rv	MIC	>100 µg/mL
O=C(NCCCOC(=O)CCCCCCCCC(=O)OCCCNC(=O)NC(=O)c1c[nH]c(=O)[nH]c1=O)NC(=O)c1c[nH]c(=O)[nH]c1=O	BACTEC		H37Rv	MIC bound	>12.5 µg/mL
S=c1ccc2ccccc2o1			H37Rv	MIC	50 µg/mL
CO[C@H]1/C=C/O[C@@]2(C)Oc3c(C)c(O)c4c(O)c(c5c(c4c3C2=O)NC2(CCN(CC(C)C)CC2)N=5)=NC(=O)/C(C)=C\C=C\[C@H](C)[C@H](O)[C@@H](C)[C@@H](O)[C@@H](C)[C@H](OC(C)=O)[C@@H]1C			Strain 67 (L533P)	MIC	0.25 µg/mL
O=C(OCC1OC2OC(c3ccccc3)(n3ccc4c([N+](=O)[O-])ccnc43)OC2C1OC(=O)c1ccccc1)c1ccccc1	resazurin		H37Rv	MIC bound	>6.25 µg/mL
O=C(O)CC1CCCCC1			H37Rv	MIC	50 µg/mL
COC(=O)c1c(OC)cc2cc3c(c(O)c2c1C)C(=O)[C@]1(O)C(=O)C=C(OC)[C@@H](O)[C@]1(O)C3=O	BACTEC	12.5 µg/mL	H37Rv	inhibition	73%
CC(C)c1ccc2c(c1)CC[C@H]1[C@](C)(CNCCNCc3ccco3)CCC[C@]21C				MIC	50 µM
CCOC(=O)Nc1cc2c(c(N)n1)N=C1c3ccccc3CCC1O2			H37Rv	EC50	<12.5 µg/mL
COc1cc([N+](=O)[O-])c(C(=O)O)c(C(=O)O)c1OC			H37Rv	MIC	>100 µg/mL
O=C1CCCN1CCCNCCNCc1ccccc1Sc1ccccc1CO				MIC	12.5 µM
CCOC(=O)Nc1cc(NC(c2ccc(Cl)cc2)c2ccc(Cl)cc2)c([N+](=O)[O-])c(N)n1			H37Rv	EC50	>12.5 µg/mL
CC(C)N=c1cc2n(-c3ccc(Cl)cc3)c3ccccc3nc-2cc1Nc1ccc(Cl)cc1	broth dilution / resazurin		MDR20	MIC	1 µg/mL
Cc1cc(Cl)cc(SCC(=O)O)c1C#N			H37Rv	MIC	>100 µg/mL
CC1(C)CC2CC(C)(CN2CCNC[C@@H]2CC[C@H]3C[C@@H]2C3(C)C)C1				MIC	6.25 µM
CO[C@H]1/C=C/O[C@@]2(C)Oc3c(C)c(O)c4c(O)c(c(/C=N/N5CCN(C6CCCC6)CC5)c(O)c4c3C2=O)NC(=O)/C(C)=C\C=C\[C@H](C)[C@H](O)[C@@H](C)[C@@H](O)[C@@H](C)[C@H](O)[C@@H]1C			Isolate 900201 drug-susceptible	MIC	0.25 µg/mL
O=C1CC(c2ccc(Cl)cc2)Oc2ccccc21			H37Rv	EC50	>12.5 µg/mL
O=C(O)c1ccc(Cc2ccc(C(=O)O)cc2)cc1			H37Rv	MIC	>100 µg/mL
CO[C@H]1/C=C/O[C@@]2(C)Oc3c(C)c(O)c4c(O)c(c(/C=N/N5CCN(C)CC5)c(O)c4c3C2=O)NC(=O)/C(C)=C\C=C\[C@H](C)[C@H](O)[C@@H](C)[C@@H](O)[C@@H](C)[C@H](OC(C)=O)[C@@H]1C			TN3806	MIC	>32 µg/mL
CC/C(=N\NC(N)=O)c1ccccc1			H37Rv	MIC	>100 µg/mL
Nc1ccc(C(=O)/C=C/c2cccnc2N)cc1				EC50	>12.5 µg/mL
NCC[C@H](O)C(=O)N[C@@H]1C[C@H](N)[C@@H](O[C@H]2O[C@H](CN)[C@@H](O)[C@H](O)[C@H]2O)[C@H](O)[C@H]1O[C@H]1O[C@H](CO)[C@@H](O)[C@H](N)[C@H]1O			A2B (amikacin-resistant)	MIC	128 µg/mL
O=C(Nc1ccc2cc(S(=O)(=O)[O-])cc(S(=O)(=O)[O-])c2c1)c1ccc([N+](=O)[O-])cc1.[Na+].[Na+]			H37Rv	MIC	>100 µg/mL
c1ccc2c(c1)CC(NCCNC1C3CC4CC(C3)CC1C4)C2				MIC	25 µM
C1=C(CCNCCNCC23CC4CC(CC(C4)C2)C3)CCCC1				MIC	25 µM
Cc1c2[nH]c(C(=O)O)cc(=O)c2cc2c(=O)cc(C(=O)O)[nH]c12	BACTEC	12.5 µg/mL	H37Rv	inhibition	31%
COc1ccc(CNCCNC[C@@H]2CC[C@H]3C[C@@H]2C3(C)C)cc1OC				MIC	50 µM
Cc1cc(C)c(O)c(N=Nc2ccccc2)c1			H37Rv	MIC	50 µg/mL
CO[C@@]12[C@H](COC(N)=O)C3=C(C(=O)C(C)=C(N)C3=O)N1C[C@H]1[C@@H]2N1C(=O)/C=C/c1ccccc1	BACTEC		H37Rv	MIC	0.2 µg/mL
c1ccc(Cc2nc3ccccc3o2)cc1			H37Rv	MIC	>100 µg/mL
CCOC(=O)Nc1cc(NCC(O)CN(C)c2ccc(OC)cc2)c([N+](=O)[O-])c(N)n1			H37Rv	EC50	>12.5 µg/mL
O=C(/C=C/c1ccccc1)c1ccccc1O				EC50	<12.5 µg/mL
CCOC(=O)Nc1cc2nc(-c3ccccc3)c(-c3ccccc3)nc2c(OCC)n1			H37Rv	EC50	<12.5 µg/mL
CCC(CO)NCCNCc1ccc(C(F)(F)F)cc1				MIC	37.5 µM
Cl.Nc1ccc(I)cc1			H37Rv	MIC	1.56 µg/mL
O=C(CN1CCN(c2ccccc2)CC1)n1nnc2ccccc21	resazurin	6.25 µg/mL	H37Rv	inhibition	14%
Nc1ccccc1C1CCCCC1			H37Rv	MIC	100 µg/mL
NC(=O)CCCc1ccc2oc3ccccc3c2c1	BACTEC		H37Rv	MIC bound	>12.5 µg/mL
CCCCCCCCCCCNCCNCc1ccc(OC)c(OC)c1				MIC	50 µM
CC(C)c1ccc2c(c1)CC[C@H]1[C@](C)(CNCCNC3CCCCC3C)CCC[C@]21C				MIC	25 µM
COc1ccc(CCNCCNCCc2ccc(F)cc2)cc1				MIC	12.5 µM
O=C(O)CCCCOc1ccccc1			H37Rv	MIC	>100 µg/mL
Cc1ccc(S(=O)(=O)NNC(=O)c2cccnc2)cc1	BACTEC		H37Rv	MIC bound	>12.5 µg/mL
CCOCCCNCCNC[C@@H]1CC[C@H]2C[C@@H]1C2(C)C				MIC	50 µM
CSc1nc(-c2ccccc2)c(C#N)c(=O)[nH]1	BACTEC	12.5 µg/mL	H37Rv	inhibition	0%
O=C(O)c1c[nH]c2ccccc2c1=O			H37Rv	MIC	>100 µg/mL
COc1ccccc1CCNCCNC(C)(C)CC(C)(C)C				MIC	50 µM
O=[N+]([O-])c1ccc2[nH]c(=S)[nH]c2c1	resazurin	6.25 µg/mL	H37Rv	inhibition	-56%
COc1ccc(CNCCNCCC2=CCCCC2)c(OC)c1				MIC	50 µM
CNC(=O)Oc1ccccc1C(=O)Nc1ccccc1	BACTEC	12.5 µg/mL	H37Rv	inhibition	14%
CO[C@H]1/C=C/O[C@@]2(C)Oc3c(C)c(O)c4c(O)c(c(/C=N/N5CCN(C/C=C/c6ccccc6)CC5)c(O)c4c3C2=O)NC(=O)/C(C)=C\C=C\[C@H](C)[C@H](O)[C@@H](C)[C@@H](O)[C@@H](C)[C@H](OC(C)=O)[C@@H]1C			31 (rifampin-resistant)	MIC	0.2 µg/mL
CC1(C)COC(c2cc(Br)ccc2Br)=N1	BACTEC		H37Rv	MIC bound	>12.5 µg/mL
CC[C@H]1OC(=O)[C@H](C)[C@@H](O[C@H]2C[C@@](C)(OC)[C@@H](O)[C@H](C)O2)[C@H](C)[C@@H](O[C@@H]2O[C@H](C)C[C@H](N(C)C)[C@H]2O)[C@](C)(O)C[C@@H](C)C(=O)[C@H](C)[C@@H](O)[C@]1(C)O			ATCC 35826	MBC	>8 µg/mL
COc1cc(CNCCNCc2ccccc2)cc(OC)c1OC				MIC	50 µM
O=C(O)c1ccc2nc[nH]c2c1			H37Rv	MIC	>100 µg/mL
CC1COc2c(N3CCN(C)CC3)c(F)cc3c(=O)c(C(=O)O)cn1c23			ATCC 35823	MBC	1 µg/mL
CSC(=S)Nc1cccc(C)n1	resazurin	6.25 µg/mL	H37Rv	inhibition	3%
C=C(C)C(CCC#N)(CCC#N)C(C)=O			H37Rv	MIC	>100 µg/mL

5 of the rows above, restated:

smiles	method	dose	strain	read-out	result
CCOC(=O)Nc1cc2c(c(N)n1)N=C1c3ccccc3CCC1O2			H37Rv	EC50	<12.5 µg/mL
S=c1ccc2ccccc2o1			H37Rv	MIC	50 µg/mL
CO[C@H]1/C=C/O[C@@]2(C)Oc3c(C)c(O)c4c(=O)c(c5oc6cc(N7CCN(C(C)C)CC7)cc(=O)c6nc5c4c3=C2O)NC(=O)/C(C)=C\C=C\[C@H](C)[C@H](O)[C@@H](C)[C@@H](O)[C@@H](C)[C@H](OC(C)=O)[C@@H]1C			2983 (rifampin-sensitive)	MBC	0.012 µg/mL
O=C(OCC1OC2OC(c3ccccc3)(n3ccc4c([N+](=O)[O-])ccnc43)OC2C1OC(=O)c1ccccc1)c1ccccc1	resazurin		H37Rv	MIC bound	>6.25 µg/mL
COc1ccc(CNCCNC[C@@H]2CC[C@H]3C[C@@H]2C3(C)C)cc1OC				MIC	50 µM

MIC bound: limit read from a one-dose screen. MIC50, MIC90 and the like: level of inhibition, or share of isolates inhibited. Blank or dashed fields: not listed here. ECn is the concentration giving n% inhibition of infection, replication or growth. Inhibition is in % at the dose shown (toxicity tests: loss of growth or viability).